Measured values from several laboratories, pooled; numbers as filed in NIAID ChemDB.

Common to all: whole-cell or culture tests; species: HIV-1; read-out: EC50

Blank or dashed fields: not listed here. ECn: concentration that inhibits the pathogen or its effect by n%. Rows are shuffled and stem from different studies.

SMILES | strain or isolate | mutations | cells | method | conditions | result
CCn1nc(Cc2ccc(Cl)cc2)cc1C1CCN(C[C@H]2CN([C@@H](C(=O)O)C(C)C)C[C@@H]2c2cccc(F)c2)CC1 | BaL |  | HeLa | β-galactosidase | 50% human serum | <0.3 µM
Cn1c2ccccc2c2c1cc(C#N)c(=O)n2-c1ccc([N+](=O)[O-])cc1 | NNRTI-resistant | RT-V106I Y188L | HeLa | luciferase |  | 0.0069 µM
Cc1[nH]c(=O)c(F)cc1Cn1cnc(C(F)(F)C(F)F)c(Oc2cc(C(F)F)cc(C#N)c2C)c1=O |  |  |  | RT activity / fluorescence |  | 3.634 µM
Cc1ccnc2c1NC(=O)c1cccnc1N2C1CC1 | TEKI |  | PBMC | cytopathic effect / XTT | clinical isolate | 0.1 µM
Cc1ccnc2c1NC(=O)c1cccnc1N2C1CC1 | RTMC(184) (RT D67N K70R M184V T215F K219Q) | RT-D67N K70R M184V T215F K219Q | HT4 + HT4 LacZ-1 | plaque count |  | 0.04 µM
CC[C@@H](C)[C@H](C(=O)O)N1C[C@H](CN2CCC(c3cc(Cc4ccc(-c5ccccc5)cc4)nn3CC)CC2)[C@@H](c2cccc(F)c2)C1 | BaL |  | HeLa | β-galactosidase |  | <0.0012 µM
Nc1nc(=O)n([C@@H]2CS[C@H](CO)O2)cc1F | HXB2 | RT-V75T | CD4+HELA + HeLa | plaque count |  | 0.28 ± 0.1 µM
S=C(NCCc1cccs1)Nc1ccc(Br)cn1 | J821-1 Clinical isolate |  | HT4 + HeLa | plaque count |  | 0.065 µM
C[C@H](Cn1cnc2c(N)ncnc21)OCP(=O)(O)O | Recombinant | RT-M41L A62V S68N G112S V118I M184V | HeLa | luciferase |  | 0.22 µM
Cc1ccnc2c1NC(=O)c1cccnc1N2C1CC1 | NNRTI-resistant (RT V108I) | RT-V108I | MAGI | β-galactosidase |  | 0.29 µM
CC(=O)N1CCC(C(=O)N(CCCN2CCC(Cc3ccc(C(N)=O)cc3)CC2)c2ccc(C)c(Cl)c2)CC1 | X4 subtype B_3 recombinant |  | U87 (CD4+ CXCR4+) + U87 | luciferase |  | >19 µM
N#Cc1cc2[nH]c3ccccc3c2n(-c2ccc([N+](=O)[O-])cc2)c1=O | Recombinant | RT-M41L S68N G112S M184V | HeLa | luciferase |  | 1.82 µM
CC[C@H](C)[C@H](C(=O)O)N1C[C@H](CN2CCC(c3cc(Cc4ccc(O)cc4)nn3CC)CC2)[C@@H](c2cccc(F)c2)C1 | BaL |  | HeLa | β-galactosidase | 50% human serum | <0.011 µM
C#C[C@]1(CO)O[C@@H](n2cnc3c(N)nc(F)nc32)C[C@@H]1O | Clinical isolate | T165A/M184V | MT4-GFP | fluorescence |  | 0.01378 µM
CCn1nc(Cc2ccc(C#N)cc2)cc1C1CCN(C[C@H]2CN([C@@H](C(=O)O)C3CCCCC3)C[C@@H]2c2cccc(F)c2)CC1 | BaL |  | HeLa | β-galactosidase |  | <0.0004 µM
Cc1ccnc2c1NC(=O)c1cccnc1N2C1CC1 | NL4-3 | RT-M184V | MAGI (CCR5) + MAGI | β-galactosidase |  | 0.066 µM
Nc1ccn([C@H]2CC[C@@H](CO)O2)c(=O)n1 | HXB2 | RT-V75T T215Y | CD4+HELA + HeLa | plaque count |  | 1.1 µM
CC(C)=CCN1Cc2cc(Cl)cc3[nH]c(=S)n(c23)C[C@@H]1C | HIVRTMF (RT L74V Y181C) | RT-L74V Y181C T215Y | HT4 + HT4 LacZ-1 | plaque count |  | 2.5 µM
CCn1nc(Cc2ccc(OC(F)F)cc2)cc1C1CCN(C[C@H]2CN([C@@H](C(=O)O)C(C)C)C[C@@H]2c2cccc(F)c2)CC1 | BaL |  | HeLa | β-galactosidase | 50% human serum | <0.1 µM
C#C[C@@]1(CO)C=C[C@H](n2cc(C)c(=O)[nH]c2=O)O1 | HXB2 | RT-K103N | MAGI (CCR5) + MAGI | β-galactosidase |  | 0.46 µM
Nc1ccn([C@H]2CC[C@@H](CO)O2)c(=O)n1 | HXB2 | RT-M184V | HT4 + HT4 LacZ-1 | plaque count |  | 0.77 µM
CCCOc1ccc(Cc2cc(C3CCN(C[C@H]4CN([C@@H](C(=O)O)C5CCCCC5)C[C@@H]4c4cccc(F)c4)CC3)n(CC)n2)cc1 | BaL |  | HeLa | β-galactosidase |  | <0.0012 µM

2 of the rows above, restated:

{"SMILES": "CCn1nc(Cc2ccc(Cl)cc2)cc1C1CCN(C[C@H]2CN([C@@H](C(=O)O)C(C)C)C[C@@H]2c2cccc(F)c2)CC1", "strain or isolate": "BaL", "cells": "HeLa", "method": "β-galactosidase", "conditions": "50% human serum", "result": "<0.3 µM"}
{"SMILES": "Cn1c2ccccc2c2c1cc(C#N)c(=O)n2-c1ccc([N+](=O)[O-])cc1", "strain or isolate": "NNRTI-resistant", "mutations": "RT-V106I Y188L", "cells": "HeLa", "method": "luciferase", "result": "0.0069 µM"}